For at least one entry, the source does not settle the construct or the ends of the probe. At least one verdict was read from the data and is not stated in words by the source.
Molecular target: Irr (iron response regulator) (Brucella melitensis M5-90) (UniProt Q842L5)
Assay: EMSA
Settings: protein translated in vitro; protein details: Halo (pDAP-Halo-Kan vector); label: biotin

| Sequence | binding result |
| --- | --- |
| AGGAATAATCATGCGTCTTAC (double strand) [BME_RS13665-2 (rirA)] | binds |
| CATTCTTAAAATATATGAAAC (double strand) [BME_RS13665-1 (rirA)] | binds |

— PMC10374146
